In general, IC50 refers to the concentration that inhibits the measured activity by half.

These results are taken from article PMC5056392, “CD4-mimetic sulfopeptide conjugates display sub-nanomolar anti-HIV-1 activity and protect macaques against a SHIV162P3 vaginal challenge” (Scientific Reports, 2016).

Like-named read-outs stand apart in the source and are kept apart here.

For one data set, the system named is SHIV162P3. It counts as cell-based, SHIV. Particulars: Table 1; B-R5; TZM-bl cells, 48 h, luciferase; means of two experiments. In a few lines: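 TZM-bl cells (CD4/CCR5/CXCR4, HIV LTR-luciferase reporter) with 30 μg/mL DEAE dextran were preincubated with 10-fold serial dilutions of mCD4 conjugates, then infected with 50, 100 or 200 TCID50 virus. After 48 h at 37 °C, luciferase RLU were expressed as percent of compound-free infected wells, and IC50 was derived by non-linear regression.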

Data set [1] is described as follows: Storage stability in HEC gel. Particulars: formulated in HEC gel, stored at −20 °C; data not shown. It counts as physicochemical.
Data set [2] in a line: Pharmacokinetics in vaginal fluid after vaginal gel application. The data set is classed as in vivo, cynomolgus macaques (Macaca fascicularis). Particulars: bioassay against HIV-1 IIIB in TZM-bl cells. As for the experimental part: A PK study of the mCD4.1-PS1 was conducted in naïve female cynomolgus macaques pre-treated intramuscularly with 30 mg medroxyprogesterone acetate (Depo-Provera, Pfizer) 4–5 weeks before the gel application. Two ml of HEC gels containing mCD4.1-PS1 at 36, 144 or 600 μM, were applied into the vaginal cavity with a French catheter connected to ready-to-use syringe (two females per group). Vaginal fluids were collected before and at various time points after gel administration, by placing pre-weighted Weck-Cel sponges (Beaver Visitec International) into the vagina. Upon removal, sponges were reweighed to calculate the collected vaginal fluid weight and sponge contents were eluted in PBS containing 0.25 M NaCl and protease inhibitors (Calbiochem). Eluates were stored at −80 °C prior to analysis. The mCD4.1-PS1 activity remaining in these samples, diluted to at least 3% to eliminate any cytotoxicity, was measured in TZM-bl cells using the HIV-1 IIIB strain that constitutes an excellent reporter of the compound activity. Animals BL133 and BO731 included in the PK study at 36 μM were re included in the PK study at 144 μM.
CVL were cleared from any cell-debris by centrifugation at 1,500 rpm during 10 minutes, prior to freezing at −80 °C. After thawing, TMZbl cells (10^4 cells/well) were incubated with a serial 10-fold dilution (starting from 3% down to 0.00003%) of each CVL for 30 minutes. Subsequently, 50 TCID50 of IIIB virus was added to the cells. All conditions were done in triplicates. The plates were incubated for 48 hours (37 °C, 5% CO2). Subsequently, 120 μL of supernatants were removed, 75 μl of the luciferase substrate Steadylite (Perkin Elmer, Life Sciences, Zaventem, Belgium) were added to the wells and the plates were incubated at room temperature on an orbital shaker for 10 minutes. Next, the luciferase activity was measured using a TriStar LB941 luminometer (Berthold Technologies GmbH & Co. KG., Bad Wildbad, Germany) and expressed as relative light units (RLU) and expressed as a percentage of that in positive control wells. IC50 were calculated in GraphPad Prism 5.03 using non-linear regression (GraphPad Software, San Diego, CA, USA) and used to estimate the compound concentrations in CVL.

For another data set, the system named is HIV-1 NL4.3. It counts as cell-based. Particulars: primary CD4 T cells infected with NL4.3, co-culture with autologous target cells, Gag+ targets by flow cytometry.
Where [3] appears, read: 2 ml 1.5% HEC gel at 600 μM, two animals.

With `CC(C)C[C@@H]1NC(=O)CNC(=O)[C@H](CC(C)C)NC(=O)[C@H](CO)NC(=O)[C@H](CO)NC(=O)[C@@H]2CSSC[C@@H](C(=O)N[C@H](C(N)=O)C(C)C)NC(=O)[C@H](C)NC(=O)[C@@H]3CSSC[C@H](NC(=O)[C@H](CCCCNC(=O)CCOCCOCCNC(=O)CCN4C(=O)CC(SCCC(=O)NCCCC(=O)N[C@@H](CO)C(=O)N[C@@H](Cc5ccc(OS(=O)(=O)O)cc5)C(=O)N[C@@H](CC(=O)O)C(=O)N[C@@H](Cc5ccc(OS(=O)(=O)O)cc5)C(=O)N[C@@H](CO)C(=O)N[C@@H](Cc5ccc(OS(=O)(=O)O)cc5)C(=O)N[C@@H](CC(=O)O)C(=O)N[C@@H](Cc5ccc(OS(=O)(=O)O)cc5)C(=O)N[C@@H](CO)C(=O)N[C@@H](Cc5ccc(OS(=O)(=O)O)cc5)C(=O)N[C@@H](CC(=O)O)C(=O)N[C@@H](Cc5ccc(OS(=O)(=O)O)cc5)C(=O)N[C@@H](CO)C(=O)O)C4=O)NC(=O)[C@H](Cc4c[nH]cn4)NC(=O)[C@H](CC(C)C)NC(=O)[C@H](CC(N)=O)NC(=O)CCSSC[C@H](NC(=O)[C@H](CCCNC(=N)N)NC(=O)CNC(=O)[C@H](CC(C)C)NC1=O)C(=O)N[C@@H](C)C(=O)NCC(=O)N[C@@H](CO)C(=O)N[C@@H](Cc1ccc(-c4ccccc4)cc1)C(=O)N3)C(=O)N[C@@H](CCC(N)=O)C(=O)N[C@@H](CC(C)C)C(=O)N[C@@H](CCCNC(=N)N)C(=O)N2` (stereo partly drawn) [mCD4.1-PS1], the IC50 was 36 nM in the data set on SHIV162P3; 0.2 nM in the data set with HIV-1 NL4.3 (48 h, read-out: IC50 (nM) 48h, cell-cell transmission); 0.2 nM in the data set on HIV-1 NL4.3 (72 h, read-out: IC50 (nM) 72h, cell-cell transmission). Moreover, in data set [1], the “stability on storage in HEC gel” value is recorded as “stable for one year”. In addition, the “active concentration in vaginal fluid, after the first two hours” value in data set [2] (2 ml 1.5% HEC gel at 36 μM) is given as “below 1 μM”. Also, in data set [2] (2 ml 1.5% HEC gel at 36 μM, only in one animal of two), the “active concentration in vaginal fluid, first two hours” value was “approx. 8 μM”. Also, the “active concentration in vaginal fluid after 2 h” value in data set [2] (2 ml 1.5% HEC gel at 144 μM, two animals) was “above 25 μM”. Besides, the “active concentration in vaginal fluid at 24 h” value in data set [2] (setting [3]) is on record as “approx. 3.5 μM”. Moreover, in data set [2] (setting [3]), the “active concentration in vaginal fluid during the first 6 h” value is listed as “above 150 μM”.
